Reference: PubChem BioAssay AID504761 (Drosophila RNAi Screening Center, 2011)

Screen: 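Insect host genes that dengue virus relies on to spread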 (primary screen)
Cell system: D.Mel-2 cells from Drosophila
Reagent: long dsRNA against Drosophila genes
Conditions: infection with dengue virus type 2; dose and infection time not stated
Measured: 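Per well on two replicate plates, imaging gave the percent of cells positive for viral envelope protein, ranked by infection, and a nuclear count of cells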
Direction: infection score: higher = more virus-infected cells; cell count: higher = more cells in the well
Hit rule: 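Low infection ranks in the two replicates (chance level up to 0.065) followed by a retest with a 1.5-fold or larger significant decrease, p below 0.05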
Calls: active = confirmed: knock-down lowers infection; inactive = not picked or not confirmed
The screen tested about 22,000 reagents; this is a random part of those that have a named target and a result. Over the whole deposit, 116 (0.52%) were called active. 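Calls depend on retest data that are not deposited; infection was ranked per plate without normalising between plates; the unit of the infection score is not given.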 Raw values vary from plate to plate and are shown uncorrected. The numbers tell different reagents against one gene apart. Names joined by + are all predicted targets of the reagent. Not given: the amount of reagent, the time to read-out.

| gene | dsRNA no. | infection score, replicate 1 | infection score, replicate 2 | cell count, replicate 1 | cell count, replicate 2 | Call |
| --- | --- | --- | --- | --- | --- | --- |
| CG3164 | 1 | 1.26 | 12 | 6661 | 6653 | inactive |
| CG43367 + CG32252 (retired record) | 1 | 13.3 | 6.08 | 6462 | 5836 | inactive |
| CG30109 + CG30108 | 1 | 2.07 | 1.89 | 5887 | 5514 | inactive |
| CG14207 | 1 | 10.6 | 18.6 | 6802 | 6732 | inactive |
| CG14207 | 2 | 5.2 | 1.87 | 4289 | 6535 | inactive |
| CG11112 | 1 | 6.37 | 7.89 | 6701 | 6676 | inactive |
| CG11112 | 2 | 3.5 | 4.67 | 6106 | 6140 | inactive |
| Sgf29 | 1 | 22.3 | 3.81 | 6765 | 7332 | inactive |
| tyn | 1 | 2.67 | 1.7 | 5251 | 5831 | inactive |
| NitFhit | 1 | 3.63 | 10.4 | 6317 | 6421 | inactive |
| NitFhit | 2 | – | 15.5 | 445 | 6310 | inactive |
| Send1 | 1 | 4.89 | 3.34 | 6754 | 6204 | inactive |
| Send1 | 2 | 21.6 | 5.65 | 5634 | 6639 | inactive |
| Tango1 | 1 | 10.4 | – | 5185 | 481 | inactive |
| Tango1 | 2 | 14.2 | 10.9 | 6270 | 6333 | inactive |
| CG32448 | 1 | 6.88 | 2.92 | 6627 | 6443 | inactive |
| AdamTS-B | 1 | 4.38 | 7.68 | 6503 | 6807 | inactive |
| AdamTS-B | 2 | 5.41 | 2.64 | 6785 | 6628 | inactive |
| SppL | 1 | 0.67 | 3.76 | 6529 | 6669 | inactive |
| Art7 | 1 | 20.6 | 14.4 | 6089 | 6060 | inactive |
| Art7 | 2 | 1.21 | 0.97 | 6802 | 6363 | active |
| CG17930 | 1 | 8.95 | 15.1 | 7249 | 6640 | inactive |
| CG17930 | 2 | 16.6 | 10.6 | 6083 | 5365 | inactive |
| CG6729 | 1 | 8.43 | 6.37 | 6485 | 6448 | inactive |
| CG6729 | 2 | 1.4 | 6.27 | 5799 | 4303 | inactive |
| CG6729 | 3 | 17.7 | 25.1 | 5555 | 5284 | inactive |
| Ugt36A1 | 1 | 4.11 | 5.41 | 6454 | 6376 | inactive |
| Ugt36A1 | 2 | 6.6 | 13.8 | 5497 | 1315 | inactive |
| Ccdc56 + mtTFB1 | 1 | – | – | 348 | 23 | inactive |
| CCKLR-17D1 | 1 | 3.38 | 2.26 | 5266 | 5755 | inactive |
| CCKLR-17D1 | 2 | 11.3 | 0.16 | 4992 | 5550 | inactive |
| CCKLR-17D1 | 3 | 4.1 | 41.2 | 6586 | 5355 | inactive |
| CG16970 (retired record) | 1 | 4.68 | 4.18 | 6629 | 6482 | inactive |
| CG16970 (retired record) | 2 | 2.21 | 2.3 | 6384 | 5924 | inactive |
| mlt | 1 | 10.3 | 9.44 | 6143 | 6546 | inactive |
| mlt | 2 | 6.84 | 12.6 | 5922 | 7039 | inactive |
| CG4115 | 1 | 14.1 | 1.95 | 6564 | 7446 | inactive |
| PVRAP | 1 | 1.32 | 2.76 | 6231 | 5834 | inactive |
| Tsp42Ea | 1 | 13.6 | 4.87 | 5326 | 2219 | inactive |
| Tsp42Ea | 2 | 10.5 | 19.8 | 1548 | 4560 | inactive |
| Br140 | 1 | 4.18 | 21.8 | 7137 | 6067 | inactive |
| CG42788 | 1 | 10 | 17.1 | 5437 | 4436 | inactive |
| CG42788 | 2 | 5.24 | 9.6 | 5900 | 6112 | inactive |
| CG42788 | 3 | 17.6 | 14.6 | 6295 | 4475 | inactive |
| CG42788 | 4 | 4.74 | 14.8 | 6673 | 4050 | inactive |
| CG5913 | 1 | 6.89 | 8.06 | 6907 | 5445 | inactive |
| fbp | 1 | 7.47 | 5.24 | 6762 | 2845 | inactive |
| TwdlQ | 1 | 3.28 | 9.95 | 6624 | 7429 | inactive |
| TwdlQ | 2 | 18.8 | 13.5 | 6664 | 6566 | inactive |
| CG1999 | 1 | 1.8 | 4 | 6558 | 6708 | inactive |
| CG1999 | 2 | 0.84 | – | 474 | 301 | inactive |
| FMRFa | 1 | 6.4 | 3.15 | 2938 | 7307 | inactive |
| CG13670 | 1 | 2.27 | 2.17 | 6074 | 5978 | inactive |
| CG13670 | 2 | 11.9 | 9.88 | 4054 | 6509 | inactive |
| Or45b | 1 | 4.48 | 13.5 | 6628 | 6808 | inactive |
| Dbp21E2 | 1 | 1.22 | 2.07 | 5993 | 6902 | inactive |
| Dbp21E2 | 2 | 0.69 | 14.7 | 723 | 5443 | inactive |
| NELF-B | 1 | 9.48 | 7.59 | 791 | 6074 | inactive |
| NELF-B | 2 | 11.9 | 8.55 | 5607 | 5868 | inactive |

Copied from the listing, 10 entries:
| gene | dsRNA no. | infection score, replicate 1 | infection score, replicate 2 | cell count, replicate 1 | cell count, replicate 2 | Call |
| --- | --- | --- | --- | --- | --- | --- |
| CG14207 | 1 | 10.6 | 18.6 | 6802 | 6732 | inactive |
| CG14207 | 2 | 5.2 | 1.87 | 4289 | 6535 | inactive |
| CG11112 | 1 | 6.37 | 7.89 | 6701 | 6676 | inactive |
| CG11112 | 2 | 3.5 | 4.67 | 6106 | 6140 | inactive |
| Sgf29 | 1 | 22.3 | 3.81 | 6765 | 7332 | inactive |
| tyn | 1 | 2.67 | 1.7 | 5251 | 5831 | inactive |
| NitFhit | 1 | 3.63 | 10.4 | 6317 | 6421 | inactive |
| NitFhit | 2 | – | 15.5 | 445 | 6310 | inactive |
| Send1 | 1 | 4.89 | 3.34 | 6754 | 6204 | inactive |
| Send1 | 2 | 21.6 | 5.65 | 5634 | 6639 | inactive |
